Results of unrelated studies side by side (data: NIAID ChemDB).

All rows: tests in culture; organism: HIV-1; measure: fold resistance

Rows are shuffled and stem from different studies. An empty or dashed field is not shown. Fold resistance has wild type as its base.

{"smiles": "O=S(=O)(c1ccccc1)c1ccccc1", "read by": "cytopathic effect / XTT", "changes": "RT-P236L", "cells": "CEM + CEM-SS", "strain": "IIIB HEPT-resistant (RT P236L)", "result": "0.8"}
{"smiles": "CC(C)Nc1cccnc1N1CCN(C(=O)c2cc3cc(NS(C)(=O)=O)ccc3[nH]2)CC1", "read by": "cytopathic effect", "changes": "RT-L100V K103R/K Y188H", "cells": "CEM", "strain": "B-1 (RT L100V K103R/K Y188H)", "result": "100"}
{"smiles": "Cc1cc(Br)cc(S(=O)(=O)c2cccc(N)c2C#N)c1", "read by": "β-galactosidase", "changes": "RT-V108I", "cells": "HeLa + HELA CD4+", "result": "1.55"}
{"smiles": "O=c1[nH]cnc2c1ncn2[C@H]1CC[C@@H](CO)O1", "read by": "plaque count", "changes": "RT-L210W", "cells": "HELA-CD4+", "strain": "JF10(RT-L210W)", "result": "0.78"}
{"smiles": "Nc1nc2c(ncn2[C@H]2CO[C@@H](CO)O2)c(=O)[nH]1", "changes": "RT-D67N T69D K70R L74V K103N Y181C T215F K219Q", "strain": "RT D67N 69D 70R 74V 215F 219Q 103N 181C", "result": "1.9"}
{"smiles": "C/C=C/CSc1cc(NC(=S)c2ccsc2C)ccc1Cl", "read by": "cytopathic effect / XTT", "changes": "RT-M184I", "cells": "CEM + CEM-SS", "strain": "3TC-RS (RT-M184I)", "result": "0.5"}
{"smiles": "Cc1cn([C@H]2C[C@H](N=[N+]=[N-])[C@@H](CO)O2)c(=O)[nH]c1=O", "read by": "cytopathic effect / XTT", "changes": "RT-A98G V108I", "cells": "CEM + CEM-SS", "strain": "IIIB(TIBO-R(I))", "result": "1.8"}
{"smiles": "C[C@H](Cn1cnc2c(N)ncnc21)OCP(=O)(O)O", "read by": "cytopathic effect / XTT", "changes": "RT-K65R", "cells": "MT-2", "strain": "Site-directed mutant", "result": "3.3"}
{"smiles": "Nc1ccn([C@@H]2CO[C@H](CO)S2)c(=O)n1", "read by": "RT activity", "changes": "RT-M184V", "cells": "CBMC", "strain": "HXB2D (RT-M184V)", "result": "0.818"}
{"smiles": "Cc1cn([C@H]2C[C@H](N=[N+]=[N-])[C@@H](CO)O2)c(=O)[nH]c1=O", "read by": "cytopathic effect / XTT", "changes": "RT-L100I", "cells": "CEM + CEM-SS", "strain": "IIIB", "result": "0.8"}
{"smiles": "CC(C)(C)C(=O)c1sc(C(=O)NCc2ccccc2)c(O)c1O", "changes": "INTG-N155H", "result": "1"}
{"smiles": "CC(C)CN(C[C@@H](O)[C@H](Cc1ccccc1)NC(=O)[C@H](CC(N)=O)NC(=O)c1ccc2ccccc2n1)C(=O)NC(C)(C)C", "read by": "p24", "changes": "PR-M46I", "cells": "MT-4", "strain": "NL4-3", "result": "1"}
{"smiles": "Cc1ccc(S(=O)(=O)N(CC(C)C)C[C@@H](O)[C@H](Cc2ccccc2)NC(=O)O[C@H]2CO[C@H]3OCC[C@H]32)cc1", "read by": "p24 / ELISA", "changes": "K112M K113E V128I M200I H219P I401T R409K D437N L441P", "cells": "MT-2", "strain": "IIIB", "result": "5.4"}
{"smiles": "CC(C)OC(=O)OCOP(=O)(CO[C@H](C)Cn1cnc2c(N)ncnc21)OCOC(=O)OC(C)C", "read by": "p24", "changes": "RT-G48V L90M", "cells": "MT-2", "strain": "Saquinavir-resistant (G48V L90M)", "result": "0.474"}
{"smiles": "O=c1[nH]cnc2c1ncn2[C@H]1CC[C@@H](CO)O1", "read by": "luciferase", "changes": "RT-M41L S68N G112S M184V", "cells": "HeLa", "strain": "Recombinant", "result": "1.4"}
{"smiles": "Nc1nc(=O)n([C@@H]2CS[C@H](CO)O2)cc1F", "read by": "plaque count", "changes": "RT-M41L M184V 215Y", "cells": "HT4 + HT4 LacZ-1", "strain": "RTMN(184) (RT M41L M184V T215Y)", "result": ">5560"}
{"smiles": "Cc1cn([C@H]2C[C@H](N=[N+]=[N-])[C@@H](CO)O2)c(=O)[nH]c1=O", "read by": "cytopathic effect / XTT", "changes": "RT-Y181C K101E", "cells": "CEM + CEM-SS", "strain": "UC10-resistant (RT Y181C K101E)", "result": "20"}
{"smiles": "Cc1cn([C@H]2C=C[C@@H](CO)O2)c(=O)[nH]c1=O", "read by": "cytopathic effect / XTT", "changes": "RT-K65R Y115F", "cells": "MT-2", "strain": "Site-directed mutant", "result": "1.8"}
{"smiles": "O=C1O[C@H]2[C@@H]3OC(=O)c4cc(O)c(O)c(O)c4-c4c(cc(O)c(O)c4O)C(=O)OC[C@H]2O[C@@H](OC(=O)c2cc(O)c(O)c(O)c2)[C@@H]3OC(=O)c2cc(O)c(O)c3c2[C@@H]2C1=CC(=O)[C@](O)(O3)C2(O)O", "changes": "RT-G190A", "cells": "MAGI", "strain": "NNRTI-resistant (RT G190A) ARP1014", "result": "1.49"}
{"smiles": "CN[C@H]1CO[C@@H]2OCC[C@H](OC(=O)N[C@@H](Cc3cccc(OC)c3)[C@H](O)CN(CC(C)C)S(=O)(=O)c3ccc4nc(NC(C)C)sc4c3)[C@@H]21", "read by": "p24 / luminescence", "changes": "L10I N37D G48V I54V L63P G73C I84V L90M", "cells": "MT-4", "strain": "NL4-3", "result": "2.4"}
{"smiles": "CC(C)=CCN1Cc2cccc3[nH]c(=S)n(c23)C[C@@H]1C", "read by": "cytopathic effect / XTT", "changes": "RT-V108I", "cells": "CEM + CEM-SS", "strain": "IIIB(THZ-R(I))", "result": "51"}
{"smiles": "CCc1c(Sc2ccccn2)n(COCc2ccccc2)c(=O)[nH]c1=O", "read by": "cytopathic effect / XTT", "changes": "RT-L100I", "cells": "CEM + CEM-SS", "strain": "IIIB", "result": "10"}
{"smiles": "c1ccc2c(c1)sc1nccn12", "read by": "cytopathic effect / XTT", "changes": "RT-K103N Y181C", "cells": "CEM + CEM-SS", "strain": "IIIB(A17(III))", "result": ">200"}
{"smiles": "Cc1ccnc2c1NC(=O)c1cccnc1N2C1CC1", "read by": "cytopathic effect", "changes": "RT-Y181C", "cells": "CEM", "strain": "J-2 (RT-Y181C)", "result": "102"}
{"smiles": "Cc1cn([C@H]2C[C@H](N=[N+]=[N-])[C@@H](CO)O2)c(=O)[nH]c1=O", "changes": "INTG-N155H", "result": "1"}
{"smiles": "Fc1cccc(F)c1C1SCc2nc3ccccc3n21", "read by": "cytopathic effect / XTT", "changes": "RT-V106N", "cells": "CEM", "strain": "IIIB", "result": "5.49"}
{"smiles": "C=C(C)OC(=O)N1c2cc(Cl)ccc2NC(=S)C1(C)C", "read by": "p24", "changes": "RT-G190E", "cells": "H9", "strain": "A1(RT-G190E)", "result": ">1670"}
{"smiles": "O=c1[nH]cnc2c1ncn2[C@H]1CC[C@@H](CO)O1", "changes": "RT-K65R", "result": "7"}
{"smiles": "Cc1cn([C@H]2C[C@H](N=[N+]=[N-])[C@@H](CO)O2)c(=O)[nH]c1=O", "read by": "luciferase", "changes": "RT-A62T V118I M184V", "cells": "HeLa", "strain": "Recombinant", "result": "0.5"}
{"smiles": "CCOP(=O)(COc1ccc(C[C@H](NC(=O)O[C@H]2CO[C@H]3OCC[C@H]32)[C@H](O)CN(CC(C)C)S(=O)(=O)c2ccc(OC)cc2)cc1)OCC", "read by": "p24 / ELISA", "changes": "D437N", "cells": "MT-2", "strain": "IIIB", "result": "1.5"}
{"smiles": "COC(=O)N[C@H](C(=O)N[C@@H](Cc1ccccc1)[C@@H](O)CN(Cc1ccc(-c2ccccn2)cc1)NC(=O)[C@@H](NC(=O)OC)C(C)(C)C)C(C)(C)C", "read by": "p24 / luminescence", "changes": "L10F M46I I54V V82A", "cells": "MT-4", "strain": "NL4-3", "result": ">213"}
{"smiles": "Cc1cc(S(N)(=O)=O)ccc1NC(=O)COc1ccc(Cl)cc1C(=O)c1cc(Cl)cc(C#N)c1", "read by": "β-galactosidase", "changes": "RT-K103N V108I", "cells": "MAGI", "strain": "NNRTI-resistant (RT K103N V108I)", "result": "1.2"}
{"smiles": "CN[C@H]1CO[C@@H]2OCC[C@H](OC(=O)N[C@@H](Cc3ccccc3)[C@H](O)CN(CC(C)C)S(=O)(=O)c3ccc4nc(NC5CC5)sc4c3)[C@@H]21", "read by": "p24 / luminescence", "changes": "L10I M46L I54V V82A", "cells": "MT-4", "strain": "NL4-3", "result": "0.8"}
{"smiles": "Nc1ccn([C@H]2CC[C@@H](CO)O2)c(=O)n1", "conditions": "clinical isolate", "changes": "RT-I50V K70R I135V T215Y", "cells": "MT-4", "strain": "Clinical isolate", "result": "1.875"}
{"smiles": "Cc1occc1C(=S)Nc1ccc(Cl)c(/C=N/OC(C)(C)C)c1", "read by": "cytopathic effect / XTT", "changes": "RT-Y181C", "cells": "CEM + CEM-SS", "strain": "UC040-R (RT-Y181C)", "result": "4"}
{"smiles": "CCN[C@H]1CO[C@@H]2OCC[C@H](OC(=O)N[C@@H](Cc3cccc(OC)c3)[C@H](O)CN(CC(C)C)S(=O)(=O)c3ccc4nc(NC(C)C)sc4c3)[C@@H]21", "read by": "p24 / luminescence", "changes": "L10F M46I I54V V82A", "cells": "MT-4", "strain": "NL4-3", "result": "10"}
{"smiles": "CC(C)=CCN1c2cc(Cl)cc3[nH]c(=S)n(c23)C[C@@H]1C", "changes": "RT-M41L T215Y", "cells": "MT-4", "result": "1"}
{"smiles": "CC(C)(C)NC(=O)[C@@H]1C[C@@H]2CCCC[C@@H]2CN1C[C@@H](O)[C@H](Cc1ccccc1)NC(=O)[C@H](CC(N)=O)NC(=O)c1ccc2ccccc2n1", "read by": "p24", "changes": "PR-L63P V82T", "cells": "MT-4", "strain": "NL4-3", "result": "1"}
{"smiles": "Fc1cccc(F)c1[C@H]1SCc2nc3ccccc3n21", "read by": "cytopathic effect / XTT", "changes": "RT-K103N", "cells": "CEM", "strain": "IIIB", "result": "≥11.1"}
{"smiles": "O=[N+]([O-])c1ccccc1S(=O)(=O)c1ccccc1", "read by": "cytopathic effect / XTT", "changes": "RT-Y181C", "cells": "CEM + CEM-SS", "strain": "IIIB(DPS-R(III))", "result": ">60"}
{"smiles": "O=C(NCc1ccc(F)cc1)c1nc(N2CCCCS2(=O)=O)c2cccnc2c1O", "changes": "IN-T66I S153Y N155S", "result": "286"}
{"smiles": "Fc1cccc(F)c1[C@@H]1SCc2nc3ccccc3n21", "read by": "cytopathic effect / XTT", "changes": "RT-Y181C", "cells": "CEM", "strain": "IIIB", "result": "≥6.25"}
{"smiles": "Cc1cc(Cl)cc(S(=O)(=O)c2cccc(N)c2C#N)c1", "read by": "β-galactosidase", "changes": "RT-V108I", "cells": "HeLa + HELA CD4+", "result": "1.22"}
{"smiles": "CC(C)=CCN1Cc2cc(Cl)cc3[nH]c(=S)n(c23)C[C@@H]1C", "read by": "plaque count", "changes": "RT-D67N K70R T215Y K219Q", "cells": "HT4 + HT4 LacZ-1", "strain": "RTMC", "result": "1.45"}
{"smiles": "N#Cc1cc2[nH]c3ccccc3c2n(-c2ccc([N+](=O)[O-])cc2)c1=O", "read by": "luciferase", "changes": "RT-M41L A62V S68N G112S V118I M184V", "cells": "HeLa", "strain": "Recombinant", "result": "34.7"}
{"smiles": "CC[C@H]1C(=O)Nc2ccc(F)cc2N1C(=O)OC(C)C", "read by": "cytopathic effect", "changes": "RT-V108I M184I", "cells": "CEM", "strain": "D-3 (RT-V108I M184I)", "result": "2"}
{"smiles": "CCN(c1nc(F)ccc1NC(C)(C)C)C1CCN(C(=O)c2cc3cc(NC(=O)N4CCN(C)CC4)ccc3[nH]2)CC1", "read by": "p24 / ELISA", "changes": "K112M K113E V128I M200I H219P", "cells": "MT-2", "strain": "IIIB", "result": "2.4"}
{"smiles": "CC(C)CN(C[C@@H](O)[C@H](Cc1ccccc1)NC(=O)O[C@H]1CCOC1)S(=O)(=O)c1ccc(N)cc1", "read by": "p24", "changes": "PR-D30N N88D", "cells": "MT-4", "strain": "NL4-3", "result": "0.5"}
{"smiles": "Nc1ccn([C@H]2CC[C@@H](CO)O2)c(=O)n1", "read by": "plaque count", "changes": "RT-M41L M184V T215Y", "cells": "HT4 + HT4 LacZ-1", "strain": "RTMN(184) (RT M41L M184V T215Y)", "result": "6.54"}
{"smiles": "Cc1cc(O)cc(S(=O)(=O)c2cccc(N)c2C#N)c1", "read by": "β-galactosidase", "changes": "RT-K103N", "cells": "HeLa + HELA CD4+", "result": "167"}
{"smiles": "CC(C)Nc1cccnc1N1CCN(C(=O)c2cc3cc(NS(C)(=O)=O)ccc3[nH]2)CC1", "read by": "p24", "changes": "RT-G190E", "cells": "H9", "strain": "A1(RT-G190E)", "result": ">55.6"}
{"smiles": "O=c1[nH]cnc2c1ncn2[C@H]1CC[C@@H](CO)O1", "read by": "p24", "changes": "RT-M184V", "cells": "MT-4", "strain": "IIIB 3TC (RT-M184V)", "result": "4"}
{"smiles": "COc1cc(C(F)(F)F)cc(S(=O)(=O)c2cccc(N)c2C#N)c1", "read by": "β-galactosidase", "changes": "RT-P236L", "cells": "HeLa + HELA CD4+", "result": "0.571"}

A second listing of 6 rows from above:

smiles	read by	conditions	changes	cells	strain	result
CCOP(=O)(COc1ccc(C[C@H](NC(=O)O[C@H]2CO[C@H]3OCC[C@H]32)[C@H](O)CN(CC(C)C)S(=O)(=O)c2ccc(OC)cc2)cc1)OCC	p24 / ELISA		D437N	MT-2	IIIB	1.5
CC(C)Nc1cccnc1N1CCN(C(=O)c2cc3cc(NS(C)(=O)=O)ccc3[nH]2)CC1	p24		RT-G190E	H9	A1(RT-G190E)	>55.6
CCN[C@H]1CO[C@@H]2OCC[C@H](OC(=O)N[C@@H](Cc3cccc(OC)c3)[C@H](O)CN(CC(C)C)S(=O)(=O)c3ccc4nc(NC(C)C)sc4c3)[C@@H]21	p24 / luminescence		L10F M46I I54V V82A	MT-4	NL4-3	10
CN[C@H]1CO[C@@H]2OCC[C@H](OC(=O)N[C@@H](Cc3cccc(OC)c3)[C@H](O)CN(CC(C)C)S(=O)(=O)c3ccc4nc(NC(C)C)sc4c3)[C@@H]21	p24 / luminescence		L10I N37D G48V I54V L63P G73C I84V L90M	MT-4	NL4-3	2.4
Cc1cn([C@H]2C[C@H](N=[N+]=[N-])[C@@H](CO)O2)c(=O)[nH]c1=O	cytopathic effect / XTT		RT-A98G V108I	CEM + CEM-SS	IIIB(TIBO-R(I))	1.8
CC(C)=CCN1c2cc(Cl)cc3[nH]c(=S)n(c23)C[C@@H]1C			RT-M41L T215Y	MT-4		1